In publication PMC3470408 one finds Km data, which are given here for 2 substances.

This data set concerns C=C(C)CCO[P@@](=O)(O)OP(=O)(O)O. The data set is described as follows: purified protein. The settings on record: pH 7.0; 37.0 °C.

Consider “Rv3383c (Mycobacterium tuberculosis H37Rv)”, for which the Michaelis-Menten constant (Km) (commonly the substrate concentration at which the rate is half of its maximum) turned out to be 11 ± 2 µM.

On to “Rv0562 (Mycobacterium tuberculosis H37Rv)”, for which the Michaelis-Menten constant (Km) was found to be 1.7 ± 0.7 µM.
